Measured values published in patent publication EP1345943B1, “INHIBITORS OF PAPILLOMA VIRUS” (BOEHRINGER INGELHEIM (CANADA) LTD., priority 2000, dated 2002).

By UniProt entry, the sequences of proteins in these tests, tags left out.
UniProt P04015, whole entry: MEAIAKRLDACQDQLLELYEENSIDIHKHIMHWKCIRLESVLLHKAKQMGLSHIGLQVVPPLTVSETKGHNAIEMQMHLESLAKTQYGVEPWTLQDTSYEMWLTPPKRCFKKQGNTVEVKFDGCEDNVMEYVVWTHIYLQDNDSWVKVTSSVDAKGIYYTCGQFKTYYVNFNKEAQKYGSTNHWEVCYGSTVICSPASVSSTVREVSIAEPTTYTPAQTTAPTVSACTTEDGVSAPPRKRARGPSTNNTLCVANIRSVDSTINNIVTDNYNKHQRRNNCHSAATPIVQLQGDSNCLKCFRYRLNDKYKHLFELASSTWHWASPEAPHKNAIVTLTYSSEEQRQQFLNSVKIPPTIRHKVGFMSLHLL

Biological target: E1-E2-DNA complex (Human papillomavirus 11, UniProt P04015)
Experiment: E2-dependent E1 DNA binding assay (E1-E2 DNA assay)
Conditions: E1-E2 DNA assay of Example 11, HPV-11; tested form: Na salt
Experimental: This particular assay determines the ability of a test compound to inhibit the activity (IC50) of HPV-11 DNA replication. More specifically, in the assay described herein, the inhibitory activity of the test compound is evaluated based on its ability to interfere with the E1-E2-DNA origin of replication interaction, thereby inhibiting initiation of viral DNA replication.
This assay was modeled on a similar assay for SV40 T Antigen described by McKay (J. Mol. Biol., 1981,145:471). A 400bp radiolabeled DNA probe, containing the -HPV-11 origin of replication (Chiang et al.., 1992, Proc. Natl.-Acad. Sci. USA 89:5799) was produced by pcr, using plasmid pBluescript™ SK encoding the origin (nucleotides 7886-61 of the HPV-11 genome in unique BAMH1 site) as template and primers flanking the origin. Radiolabel was incorporated as [33p]dCTP. Binding assay buffer consisted of: 20 mM Tris pH 7.6, 100 mM NaCI, 1 mM DTT, 1 mM EDTA.
Other reagents used were protein A-SPA beads (type II, Amersham) and K72 rabbit polyclonal antiserum, raised against a peptide corresponding to the C-terminal 14 amino acids of HPV-11 E1. […] After an additional hour of incubation at room temperature, the reactions were centrifuged briefly to pellet the beads and the extent of complex formation was determined by scintillation counting on a Packard TopCount™. […]

Cc1cccc(NC(=O)[C@H]2[C@@H](c3ccc(Cl)c(Cl)c3)OC3(C(=O)c4ccccc4C3=O)[C@H]2C(=O)O)c1C (relative stereo)
IC50: 500 to 5000 nM
